# Data reported in patent US20240336672A1 (INSTITUT PASTEUR, published 2024).
# Experiments:
# Experiment in all cases: polyreactivity ELISA
# Set-up in all cases: unit not given beside the values
# [1] = target: T1, gp140 (HIV-1)
# T1 construct: recombinant, coated at 125 ng/well; also called YU2 HIV-1 Env gp140
# [2] = target: T2, Tg
# T2 construct: also called thyroglobulin
# [3] = target: MAPK14
# [4] = target: T3, LZ
# T3 construct: also called lysozyme
binder,measurement,setting,value
"Cv2.3132 (IgG) (antibody, V domains shown) VH: EVQLVESGGGLVKPGGSLRLSCAASGFTFSDYYMSWIRQAPGKGLEWVSYISSSGSVQYYADSVKGRFTISRDNAENSLYLQMNSLRAEDTAVYYCARYYYDSSGYWKRLDYWGQGTLVTVSS VL: not shown",AUC (polyreactivity ELISA),[1],0.3
same,AUC (polyreactivity ELISA),[2],0.3
same,AUC (polyreactivity ELISA),[3],0.5
same,AUC (polyreactivity ELISA),[4],0.4
